Holding throughout (assay): pseudovirus neutralization IC50; higher = weaker neutralization
Experiment [1] has as its target SARS-CoV-2 Omicron BA.1 spike pseudovirus. As for the experimental part:
(§1)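 Single-round VSV luciferase pseudovirus mixed with antibody dilutions for 1 h and put on Huh-7 cells for about a day; IC50 from the dose curve.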

Experiment [2] has as its target SARS-CoV-2 Omicron BA.2 spike pseudovirus. As for the experimental part:
as §1

Experiment [3] has as its target SARS-CoV-2 Omicron BA.2.75 spike pseudovirus. As for the experimental part:
as §1

The target in experiment [4] is SARS-CoV-2 Omicron BA.5 spike pseudovirus. The procedure: as §1
In experiment [5] the target is SARS-CoV-2 Omicron BQ.1.1 spike pseudovirus. The procedure:
as §1

Experiment [6] addresses SARS-CoV-2 Omicron XBB spike pseudovirus. The procedure: as §1
For experiment [7], the target named is SARS-CoV-2 early D614G spike pseudovirus. The procedure: as §1

Substitutions are numbered along the chain they refer to. Human monoclonal antibodies against the spike receptor-binding domain (heavy:light variable regions). IC50 against pseudoviruses bearing the spike of naturally observed variants; lower = stronger; >10 µg/ml means not reached at the top dose. No active / inactive call. The stated detection limit is 0.0005 µg/ml; values near or below 0.001 µg/ml lie at the floor of the assay.

B1: BD56-701 (protein)
chain 1: QVQLQQWGAGLLKPSETLSLTCAVYGGSFSTYYWNWIRQPPGKALEWIGEINQSGSTYYNPSLESRVTISVDTSKTQFSLNLNSVTAADTAIYYCARGGYYDSGSYYNPNFYNDYAMDVWGQGSTVTVSS
chain 2: QAGLTQPPSVSKTLRQTATLTCTGNSNNVGNQGATWLQLHQGHPPKLLSYRNNNRPSGISERFSASRSGNAASLTIAGLQPEDEADYYCSAWDSSLSAWVFGGGTKLTVL
Consider B1, for which the “pseudovirus neutralization IC50” value in experiment [1] was 5.22 mg/L; in experiment [2], 6.91 mg/L; in experiment [3] it was 6.13 mg/L; in experiment [4] it was 5.67 mg/L; in experiment [5] it was 4.2 mg/L; in experiment [6] it was 5.89 mg/L. In experiment [7], the “pseudovirus neutralization IC50” value worked out at 5.37 mg/L.

B2: BD56-726 (protein)
chain 1: QVQLQESGPGLVKPSETLSLTCTVSGGAVSSGSYYWSWIRQPPGEGLEWIGYIYYSGSTNYNPSLKSRVTISVDTSKNQFSLKLSSVTAADTAVYYCARDYLVVGGSGIYYNGQFYNYYGMDVWGQGTTVTVSS
chain 2: SYELTQPPSVSVSPGQTARITCSGDELPKQYAYWYQQKPGQSPVLVIYKDSERPSGIPERFSGSNSGTTVTLTISGVQAEDEADYYCQSADSSATYSWVFGGGTKLTVL
B2: the “pseudovirus neutralization IC50” value in experiment [1] turned out to be 1.4 mg/L; in experiment [2] it was 1.55 mg/L; in experiment [3], 1.04 mg/L; in experiment [4] it was 2.61 mg/L; in experiment [5] it was 2.67 mg/L; in experiment [6], 3.52 mg/L. The “pseudovirus neutralization IC50” value in experiment [7] was more than 10 mg/L.

B3: BD56-712 (protein)
chain 1: EVQLVESGGGLVQPGGSLRLSCAASGFTFSDYSMNWVRQAPGKGLEWISYITSSSTNIYHADSVKGRFTISRDNAKNSLYLQMNSLRAEDTAVYFCARDYDTSGPGDLFDYWGQGTLVTVSS
chain 2: SYVLTQPPSVSVAPGKTARIPCGGDNIGSKSVHWYQQKPGQAPVLVIYYDSDRPSGIPDRFSGSNSGNTATLTISRVEAGDEADYYCQVWDTGRVFGGGTKLTVL
In the case of B3, the “pseudovirus neutralization IC50” value in experiment [1] was 4.33 mg/L; in experiment [2] it was 7.95 mg/L; in experiment [3], 4.24 mg/L; in experiment [4] it was 5.73 mg/L; in experiment [5], more than 10 mg/L; in experiment [6], 6.16 mg/L. The “pseudovirus neutralization IC50” value in experiment [7] was more than 10 mg/L.

B4: BD56-708 (protein)
chain 1: EVQLVESGGGLVQPGRSLRLSCAVSGFTFHNYAMHWVRQVPGKGLEWVSGITWNSESRAYADSVKGRFTISRDNAKNFLFLQMNSLRPEDTAFYYCARDISGTYGDYFDYWGQGTLVTVAS
chain 2: SYVLTQPPSVSVAPGQAARITCGGDEIGSKSVHWYQQKPGQAPVLVINYDNDRPSGIPERFSGSNSGNTATLTISRVEAGDEADYYCQVWDSSPDHYVFGTGTKVSVL
Take B4: the “pseudovirus neutralization IC50” value in experiment [1] is 3.36 mg/L; in experiment [2], 5.57 mg/L; in experiment [3] it was 5.15 mg/L; in experiment [4], 5.77 mg/L; in experiment [5], more than 10 mg/L; in experiment [6], more than 10 mg/L. For the same molecule, the “pseudovirus neutralization IC50” value in experiment [7] worked out at 4.42 mg/L.

B5: BD56-716 (protein)
chain 1: EVHLVESGGGLVQPGRSLRLSCAASGFTFDDYAMHWVRQAPGKGLEWVSGISWNSGSIGYADSVKGRFAISRDNAKNSLYLQMNSLRAADTALYYCAMAQGPSSSDPALYWGQGTQVTVSS
chain 2: DIQMTQSPSSVSASVGDRVTITCRASQDISSWLAWYQQKPGKAPRLLIYLASSLQSGVPSRFSGSGSGTAFTLTISSLQPEDFATYYCQQSNSFPLTFGGGTKVEIK
In the case of B5, the “pseudovirus neutralization IC50” value in experiment [1] is 2.24 mg/L; in experiment [2] it was 2.63 mg/L; in experiment [3] it was 4.54 mg/L; in experiment [4] it was 3.27 mg/L; in experiment [5], 8.22 mg/L; in experiment [6] it was 7.87 mg/L. Besides, in experiment [7], the “pseudovirus neutralization IC50” value stood at 2.48 mg/L.

B6: BD56-725 (protein)
chain 1: EVQLVESGGGLVQPGRSLRLSCAASGFTFDDYAMHWVRQTPGKGLEWVSGISWNSASVGYGDSVKGRFTISRDNAKNSLYLHMNSLRPEDTALYYCAKGREYSSSAEPDNWGQGTLVIVSS
chain 2: B5 chain 2 with S10T, I21V, R45K, L50G, A70D, S91T, L96I, G100Q, K103R, V104L
Take B6: the “pseudovirus neutralization IC50” value amounted to 1.21 mg/L in experiment [1]; 1.04 mg/L in experiment [2]; 2.41 mg/L in experiment [3]; 0.916 mg/L in experiment [4]; 2.74 mg/L in experiment [5]; 5.85 mg/L in experiment [6]. Further, the “pseudovirus neutralization IC50” value in experiment [7] was 1.53 mg/L.

B7: BD56-700 (protein)
chain 1: QVQLVQSGAEVKKPGASVRISCKASGYTFTNYYMHWVRQAPGQGLEWMGIINPGGGSTTYAQRFQGRVTMTRGTSTTTVYMELSSLTSEDTAVYYCARGGSPGDNDFWSGNPVHFDPWGQGTLVTVSS
chain 2: KFMLTQPHSVSESPGKTITISCTRSSGSIASDSVQWYQQRPGSAPTIVIYKDNQRPSGVPDRVSGSIDSSSNSATLTISGLKTEDEADYYCQSYDSGNHHWVFGGGTKLTVL
Consider B7, for which the “pseudovirus neutralization IC50” value in experiment [1] is 0.968 mg/L; in experiment [2], 2.08 mg/L; in experiment [3], 1.6 mg/L; in experiment [4], 2.26 mg/L; in experiment [5] it was more than 10 mg/L; in experiment [6], more than 10 mg/L. Further, the “pseudovirus neutralization IC50” value in experiment [7] came to 2.1 mg/L.

B8: BD56-731 (protein)
chain 1: QLQLQESGPGLVKPSETLSLTCTVSRGSISNNNYYWGWIRQPPGKGLEWIGNIDYGGSTYFNPSLKSRVTISVDTSKSQFSLKLTSVTAADTAVYHCAKYGDSRMGYWYFDLWGRGTLVTVSS
chain 2: DIQMTQSPSSLSASVGDRVTITCRASQSISNYLNWYHQKSGKAPKLLIYAASSLQSGVPSRFSGSGSETDFTLTIRSLQPEDFGTYYCQQSYSTHSITFGQGTRLEIK
Take B8: the “pseudovirus neutralization IC50” value in experiment [1] came to 1.59 mg/L; in experiment [2], 2.95 mg/L; in experiment [3] it was 2.65 mg/L; in experiment [4] it was 2.52 mg/L; in experiment [5] it was 3.02 mg/L; in experiment [6], 5.17 mg/L. Moreover, the “pseudovirus neutralization IC50” value in experiment [7] is more than 10 mg/L.

B9: BD56-702 (protein)
chain 1: QVRLVESGGGVVQPGRSLRLSCAASGFSLSRYGIHWVRQAPGKGLEWVAVISFDGSNTYYADSVKGRFTISRDISKNTLYLQMNSLRVEDTAVYFCAKRGAPYCGGDCYASYLDYWGQGTLVTVSS
chain 2: DIQMTQSPSSLSASVGDRVTITCQASQDINNYLNWYQQKPGKAPKLLIYDASNLETGVPSRFSGSGSGIDFTFTITSLQPEDFATYYCQHYYNLPITFGPGTRLEVK
B9: the “pseudovirus neutralization IC50” value in experiment [1] turned out to be 1.53 mg/L; in experiment [2], 2.29 mg/L; in experiment [3] it was 2.48 mg/L; in experiment [4], 2.43 mg/L; in experiment [5] it was 2.54 mg/L; in experiment [6] it was 2.34 mg/L. Besides, in experiment [7], the “pseudovirus neutralization IC50” value came to 1.43 mg/L.

B10: BD56-717 (protein)
chain 1: QVQLVQSGAEVKKPGSSVKVSCKASGGTFSSYAISWVRQAPGQGLEWVGGIVPIFGTSNYAQKFRGRVTITADESTSTAYMELSSLRSEDTAVYYCATWESSHSYPGVDVWGQGTTVTVSS
chain 2: EIVLTQSPGTLSLSPGERATLSCRASQSVSSSYLAWYQQKPGQAPRLLIYGVSSRATGIPDRFSGSGSGTDFTLTISSLEPEDFAVYYCQQYGSVRTFGQGTKLEIK
On to B10, for which the “pseudovirus neutralization IC50” value in experiment [1], in experiment [2], in experiment [3], in experiment [4], in experiment [5] and in experiment [6] was more than 10 mg/L throughout. Also, the “pseudovirus neutralization IC50” value in experiment [7] is more than 10 mg/L.

B11: BD56-728 (protein)
chain 1: EVHLVQSGAEVKKPGESLKISCKGSGYSFISYWIGWVRQMPGKGLEWMGIIYPGDSDTRYSPSFQGQVTISADKSISTTYLQWSSLKASDTAMYYCAGGSSDSGDSRGFDIWGQGTMVTVPS
chain 2: QSVLTQPPSASGTPGQRVTISCSGNSSNIGSNFVNWYQQLPGTAPKLLIYLNNQRPSGVPDRFSGSKSGTSASLAISGLQSEDEADYYCAAWDDSLNGPVFGGGTKLTVL
Turning to B11, the “pseudovirus neutralization IC50” value in experiment [1], in experiment [2], in experiment [3], in experiment [4], in experiment [5] and in experiment [6] was more than 10 mg/L each time. In experiment [7], the “pseudovirus neutralization IC50” value was more than 10 mg/L.

B12: BD56-720 (protein)
chain 1: EVQLLESGGILVQPGGSLRLSCAASGFTFSSYAMSWVRQAPGKGLEWVSGISISGTSTYYADSVRGRFTISRDNSKNTLYLQMNSLRAEDTAVYYCAKEIPSYDNSHYYAGCYFDNWGQGTLVTVSS
chain 2: QSVLTQPPSVSAAPGQKVTISCSGSNSNIGNNYVSWYRQLPGAAPRLLIYDNNKRPSGIPDRFSGSKSGTSATLGVTGLQTGDEAEYFCGTWDSSLSAVVFGGGTKLTVL
In the case of B12, the “pseudovirus neutralization IC50” value in experiment [1] was determined as 1.27 mg/L; in experiment [2] it was 1.9 mg/L; in experiment [3], 2.15 mg/L; in experiment [4], 3.43 mg/L; in experiment [5], 3.5 mg/L; in experiment [6] it was 4.99 mg/L. Further, the “pseudovirus neutralization IC50” value in experiment [7] was more than 10 mg/L.

The values are drawn from the supplement of paper PMC9931576.
